pIC50: −log10 of the molar value.
Tested on: Trypanosoma brucei growth inhibition
Assay: trypanosome proliferation inhibitors (AID 1159557);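 also: parasites exposed to compound for 48 h before the resazurin readout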

Compound: CC(C)(C)c1ccc(NC2(C(N)=O)CCN(Cc3ccccc3)CC2)cc1
- pIC50: 4.89
